Measurements as given in publication PMC6624210 (Nature Communications, 2019).

Target: MERS-CoV S1 NTD (residues 18-353), wild type (MERS-CoV, EMC strain (NTD sequence …, UniProt K9N5Q8))

B1: 7D10-H (chimeric 7D10: V segments of mouse mAb 7D10 on the human IgG1 backbone) (antibody, V domains shown)
VH: EVQLVESGAEVVKPGASVKMSCKASGYPFTSYNIHWIKQTPGQGLEWIGAIYPGNGDTSYTQKFKVKATLTSDKSSSTAYMQLSSLTSEDSAVYFCARYGNYPSYAMDYWGQGTSVTVSS
VL: DIVMTQSPASLTVSLGQRATISCRASKSVSASGYNYLHWYQQRPGQPPKLLIYLAFNLESGVPARFNGSGSGTDFTLNIHPVEEEDAATYYCQHSRDLPFTFGSGTKLEIK
koff: 0.00101 s⁻¹ | kon: 40400 M⁻¹ s⁻¹
